Only a part is listed here, and it is no random draw. Inconclusive results are not listed. Calls of active or inactive are those of the source. Calls come from the whole dose curve.
Assay: Primary qHTS Assay for Foot and Mouth Disease Virus Antivirals against NCGC Sytravon and CBC Compound Libraries: Renilla Luciferase Signal; note: nearly all actives have a fitted effect of over 55% in size
Details: FMDV replicon cells; at 57.5 µM (top of the series)
% is set by controls: 0 for no effect and ±100 for the full control effect.

Which activity change, negative = inhibition does the source give for `CC(C)(C)c1ccc(C(=O)NCC2(N3CCOCC3)CCCCC2)cc1` here?
The activity change, negative = inhibition was inactive: -1.29%.

With `CC1CN(CCc2ccccc2)C(C)CC1=O` (centres undefined) as the molecule, how does the activity change, negative = inhibition read?
Its activity change, negative = inhibition is inactive: 5.58%.

With `Cc1ccccc1C(=O)NCC1(N(C)C)CCCCC1` as the molecule, how does the activity change, negative = inhibition read?
The activity change, negative = inhibition was inactive: -4.3%.

For `Clc1ccccc1CN1CCC(Nc2ccc(Br)cc2)CC1`, which activity change, negative = inhibition is on record?
The activity change, negative = inhibition was inactive: 24.8%.

For `Cn1cc(C(=O)NCC2(N3CCOCC3)CCCCC2)c2ccccc21`, which activity change, negative = inhibition is on record?
The activity change, negative = inhibition was inactive: -18%.

For `CN(C)C1(CNC(=O)c2cc3c(s2)CCC3)CCCCC1`, which activity change, negative = inhibition is on record?
Its activity change, negative = inhibition is inactive: -6.54%.

With `CN(C)C1(CNC(=O)c2ccc(C(C)(C)C)cc2)CCCCC1` as the molecule, how does the activity change, negative = inhibition read?
The activity change, negative = inhibition was inactive: -15.3%.

Which activity change, negative = inhibition does the source give for `COc1cc(C(=O)NCC2(N3CCOCC3)CCCCC2)cc(OC)c1OC` here?
Its activity change, negative = inhibition is inactive: 0.879%.

With `CCCOc1ccc(C(=O)NCC2(N(C)C)CCCCC2)cc1` as the molecule, how does the activity change, negative = inhibition read?
The activity change, negative = inhibition was inactive: -0.701%.

Which activity change, negative = inhibition does the source give for `CCCOc1ccccc1C(=O)NCC1(N(C)C)CCCCC1` here?
The activity change, negative = inhibition was inactive: -0.181%.

With `Cc1ccc2oc(C(=O)NCC3(N4CCCCC4)CCCCC3)cc(=O)c2c1` as the molecule, how does the activity change, negative = inhibition read?
The activity change, negative = inhibition was inactive: -0.818%.

For `Fc1ccc(CN2CCC(Nc3ccc(Br)cc3)CC2)cc1`, which activity change, negative = inhibition is on record?
Its activity change, negative = inhibition is inactive: -0.966%.

With `O=C(NCC1(N2CCCCC2)CCCCC1)c1n[nH]c(=O)c2ccccc12` as the molecule, how does the activity change, negative = inhibition read?
Its activity change, negative = inhibition is inactive: -7.55%.

Which activity change, negative = inhibition does the source give for `Cc1cc(NC2CCN(Cc3ccccc3)CC2)ccc1Br` here?
The activity change, negative = inhibition was inactive: -17.2%.

Which activity change, negative = inhibition does the source give for `Cn1nc(C(=O)NCC2(N3CCOCC3)CCCCC2)c2ccccc2c1=O` here?
Its activity change, negative = inhibition is inactive: 6.3%.

Which activity change, negative = inhibition does the source give for `CCC(=O)N(c1ccccc1)C1CCNCC1` here?
The activity change, negative = inhibition was inactive: -8.68%.

Which activity change, negative = inhibition does the source give for `O=C(NCC1(N2CCOCC2)CCCCC1)c1n[nH]c(=O)c2ccccc12` here?
The activity change, negative = inhibition was inactive: 7.41%.

With `Brc1ccc(NC2CCN(Cc3cccc(Br)c3)CC2)cc1` as the molecule, how does the activity change, negative = inhibition read?
The activity change, negative = inhibition was inactive: 2.64%.

Which activity change, negative = inhibition does the source give for `O=C(NCC1(N2CCOCC2)CCCCC1)c1ccccc1` here?
Its activity change, negative = inhibition is inactive: -12.7%.

Which activity change, negative = inhibition does the source give for `O=C(NCC1(N2CCOCC2)CCCCC1)c1ccc([N+](=O)[O-])cc1` here?
Its activity change, negative = inhibition is inactive: -1.55%.

With `CC1C(=O)CCN(CCc2ccccc2)C1C` (centres undefined) as the molecule, how does the activity change, negative = inhibition read?
The activity change, negative = inhibition was inactive: -1.55%.

With `O=C(NCC1(N2CCOCC2)CCCCC1)c1ccccc1[N+](=O)[O-]` as the molecule, how does the activity change, negative = inhibition read?
The activity change, negative = inhibition was inactive: 7.99%.

With `CCc1cc(C(=O)NCC2(N3CCOCC3)CCCCC2)sc1C` as the molecule, how does the activity change, negative = inhibition read?
The activity change, negative = inhibition was inactive: 5.52%.

With `CCCOc1cccc(C(=O)NCC2(N3CCOCC3)CCCCC2)c1` as the molecule, how does the activity change, negative = inhibition read?
Its activity change, negative = inhibition is inactive: -1.15%.

With `CCCOc1cccc(C(=O)NCC2(N(C)C)CCCCC2)c1` as the molecule, how does the activity change, negative = inhibition read?
The activity change, negative = inhibition was inactive: 2.46%.

Which activity change, negative = inhibition does the source give for `CCOc1ccc(C(=O)NCC2(N3CCOCC3)CCCCC2)cc1` here?
The activity change, negative = inhibition was inactive: -2.4%.

Which activity change, negative = inhibition does the source give for `O=C(NCC1(N2CCOCC2)CCCCC1)c1cc2c(s1)CCCC2` here?
Its activity change, negative = inhibition is inactive: -9.58%.

For `CCCCOc1ccccc1C(=O)NCC1(N2CCOCC2)CCCCC1`, which activity change, negative = inhibition is on record?
The activity change, negative = inhibition was inactive: 3.42%.

With `O=C(NCC1(N2CCOCC2)CCCCC1)c1ccccc1Br` as the molecule, how does the activity change, negative = inhibition read?
The activity change, negative = inhibition was inactive: -9.28%.

With `O=C(NCC1(N2CCOCC2)CCCCC1)c1c[nH]c2ccccc12` as the molecule, how does the activity change, negative = inhibition read?
Its activity change, negative = inhibition is inactive: -7.31%.

With `COc1ccccc1C(=O)NCC1(N(C)C)CCCCC1` as the molecule, how does the activity change, negative = inhibition read?
Its activity change, negative = inhibition is inactive: 1.01%.

Which activity change, negative = inhibition does the source give for `CC1CN(CCc2ccccc2)CCC1=O` (centres undefined) here?
The activity change, negative = inhibition was inactive: 13%.

With `CCOC(=O)N1CCC(=O)CC1` as the molecule, how does the activity change, negative = inhibition read?
The activity change, negative = inhibition was inactive: -9.15%.

Which activity change, negative = inhibition does the source give for `Cc1ccc(C(C)CCN(CCCl)CCCl)cc1` (centres undefined) here?
Its activity change, negative = inhibition is inactive: -28.3%.

For `O=C(NCC1(N2CCCCC2)CCCCC1)c1c[nH]c2ccccc12`, which activity change, negative = inhibition is on record?
The activity change, negative = inhibition was inactive: -11.5%.

Which activity change, negative = inhibition does the source give for `CCCOc1ccccc1C(=O)NCC1(N2CCOCC2)CCCCC1` here?
Its activity change, negative = inhibition is inactive: 15.4%.

Which activity change, negative = inhibition does the source give for `CN(C)C1(CNC(=O)c2nn(C)c(=O)c3ccccc23)CCCCC1` here?
Its activity change, negative = inhibition is inactive: -1.19%.

With `COc1ccccc1C(=O)NCC1(N2CCOCC2)CCCCC1` as the molecule, how does the activity change, negative = inhibition read?
The activity change, negative = inhibition was inactive: -8.36%.

Which activity change, negative = inhibition does the source give for `O=C(NCC1(N2CCOCC2)CCCCC1)c1ccc(Cl)cc1` here?
Its activity change, negative = inhibition is inactive: -10.6%.

Source: PubChem BioAssay AID1745857 (National Center for Advancing Translational Sciences (NCATS), 2022)
